Legend:
Assay in all cases: cell-based or functional assay
[1] = target: HIV-1 envelope glycoprotein gp120 of virus CHO77 (HIV-1 subtype B, virus CHO77)
[2] = target: HIV-1 envelope glycoprotein gp120 of virus BaL (HIV-1 BaL (lab adapted strain, subtype …))
[3] = target: HIV-1 envelope glycoprotein gp120 of virus 92US657 (HIV-1 subtype B, isolate 92US657)

Row | Binder | Virus Neutralization Potency (IC50) [1] [µg/mL] | Virus Neutralization Potency (IC50) [2] [µg/mL] | Virus Neutralization Potency (IC50) [3] [µg/mL]
1 | Antibody 1.18.1-1 (antibody, human IgG1, kappa) heavy: QVQLLQSGAAVTKPGASVRVSCEASGYNIRDYFIHWWRQAPGQGLQWVGWINPKHGQPNNPRQFQGRVSLTRHASWDFDTFSFYMDLKALRSDDTAVYFCARQRSDYWDFDVWGSGTQVTVSSASTKGPSVFPLAPSSKSTSGGTAALGCLVKDYFPEPVTVSWNSGALTSGVHTFPAVLQSSGLYSLSSVVTVPSSSLGTQTYICNVNHKPSNTKVDKKVEPKSCDKTHTCPPCPAPELLAGPDVFLFPPKPKDTLMISRTPEVTCVVVDVSHEDPEVKFNWYVDGVEVHNAKTKPREEQYNSTYRVVSVLTVLHQDWLNGKEYKCKVSNKALPLPEEKTISKAKGQPREPQVYTLPPSREEMTKNQVSLTCLVKGFYPSDIAVEWESNGQPENNYKTTPPVLDSDGSFFLYSKLTVDKSRWQQGNVFSCSVLHEALHSHYTQKSLSLSPGK light: not shown | 0.1 | 0.12 | 1.78
2 | Antibody 1.21.1-1 (antibody, human IgG1, kappa) heavy: QVQLLQSGAAVTKPGASVRVSCEASGYNIRDYFIHWWRQAPGQGLQWVGWINPKTGQPNNPRQFQGRVSLTRDASWDFDTFSFYMDLKALRSDDTAVYFCARQRSDYWDFDVWGSGTQVTVSSASTKGPSVFPLAPSSKSTSGGTAALGCLVKDYFPEPVTVSWNSGALTSGVHTFPAVLQSSGLYSLSSVVTVPSSSLGTQTYICNVNHKPSNTKVDKKVEPKSCDKTHTCPPCPAPELLAGPDVFLFPPKPKDTLMISRTPEVTCVVVDVSHEDPEVKFNWYVDGVEVHNAKTKPREEQYNSTYRVVSVLTVLHQDWLNGKEYKCKVSNKALPLPEEKTISKAKGQPREPQVYTLPPSREEMTKNQVSLTCLVKGFYPSDIAVEWESNGQPENNYKTTPPVLDSDGSFFLYSKLTVDKSRWQQGNVFSCSVLHEALHSHYTQKSLSLSPGK light: not shown | 0.17 | 0.11 | 2.51
3 | Antibody 1.22.1-1 (antibody, human IgG1, kappa) heavy: QVQLLQSGAAVTKPGASVRVSCEASGYNIRDYFIHWWRQAPGQGLQWVGWINPKTGQPNNPRQFQGRVSLTRHASTFSFYMDLKALRSDDTAVYFCARQRSDYWDFDVWGSGTQVTVSSASTKGPSVFPLAPSSKSTSGGTAALGCLVKDYFPEPVTVSWNSGALTSGVHTFPAVLQSSGLYSLSSVVTVPSSSLGTQTYICNVNHKPSNTKVDKKVEPKSCDKTHTCPPCPAPELLAGPDVFLFPPKPKDTLMISRTPEVTCVVVDVSHEDPEVKFNWYVDGVEVHNAKTKPREEQYNSTYRVVSVLTVLHQDWLNGKEYKCKVSNKALPLPEEKTISKAKGQPREPQVYTLPPSREEMTKNQVSLTCLVKGFYPSDIAVEWESNGQPENNYKTTPPVLDSDGSFFLYSKLTVDKSRWQQGNVFSCSVLHEALHSHYTQKSLSLSPGK light: not shown | 0.95 | > 20 | 11.3
4 | Antibody 1v2-1 (antibody, human IgG1, kappa) heavy: QVQLLQSGAAVTKPGASVRVSCEASGYNIRDYFIHWWRQAPGQGLQWVGWINPKTGQPNNPRQFQGRVSLTRHASWDFDTYSFYMDLKALRSDDTAVYFCARQRSDYWDFDVWGSGTQVTVSSASTKGPSVFPLAPSSKSTSGGTAALGCLVKDYFPEPVTVSWNSGALTSGVHTFPAVLQSSGLYSLSSVVTVPSSSLGTQTYICNVNHKPSNTKVDKKVEPKSCDKTHTCPPCPAPELLAGPDVFLFPPKPKDTLMISRTPEVTCVVVDVSHEDPEVKFNWYVDGVEVHNAKTKPREEQYNSTYRVVSVLTVLHQDWLNGKEYKCKVSNKALPLPEEKTISKAKGQPREPQVYTLPPSREEMTKNQVSLTCLVKGFYPSDIAVEWESNGQPENNYKTTPPVLDSDGSFFLYSKLTVDKSRWQQGNVFSCSVLHEALHSHYTQKSLSLSPGK light: not shown | 0.07 | 0.08 | 0.88
5 | Antibody 1.25.1-1 (antibody, human IgG1, kappa) heavy: QVQLLQSGAAVTKPGASVRVSCEASGYNIRDYFIHWWRQAPGQGLQWVGWINPKTGQPNNPRQFQGRVSLTRHASWDFDTFSFYMDLSRLRSDDTAVYFCARQRSDYWDFDVWGSGTQVTVSSASTKGPSVFPLAPSSKSTSGGTAALGCLVKDYFPEPVTVSWNSGALTSGVHTFPAVLQSSGLYSLSSVVTVPSSSLGTQTYICNVNHKPSNTKVDKKVEPKSCDKTHTCPPCPAPELLAGPDVFLFPPKPKDTLMISRTPEVTCVVVDVSHEDPEVKFNWYVDGVEVHNAKTKPREEQYNSTYRVVSVLTVLHQDWLNGKEYKCKVSNKALPLPEEKTISKAKGQPREPQVYTLPPSREEMTKNQVSLTCLVKGFYPSDIAVEWESNGQPENNYKTTPPVLDSDGSFFLYSKLTVDKSRWQQGNVFSCSVLHEALHSHYTQKSLSLSPGK light: not shown | 0.12 | 0.17 | 1.46
6 | Antibody 1.26.1-1 (antibody, human IgG1, kappa) heavy: QVQLLQSGAAVTKPGASVRVSCEASGYNIRDYFIHWWRQAPGQGLQWVGWINPKTGQPNNPRQFQGRVSLTRHASWDFDTFSFYMDLKALRSDDTATYFCARQRSDYWDFDVWGSGTQVTVSSASTKGPSVFPLAPSSKSTSGGTAALGCLVKDYFPEPVTVSWNSGALTSGVHTFPAVLQSSGLYSLSSVVTVPSSSLGTQTYICNVNHKPSNTKVDKKVEPKSCDKTHTCPPCPAPELLAGPDVFLFPPKPKDTLMISRTPEVTCVVVDVSHEDPEVKFNWYVDGVEVHNAKTKPREEQYNSTYRVVSVLTVLHQDWLNGKEYKCKVSNKALPLPEEKTISKAKGQPREPQVYTLPPSREEMTKNQVSLTCLVKGFYPSDIAVEWESNGQPENNYKTTPPVLDSDGSFFLYSKLTVDKSRWQQGNVFSCSVLHEALHSHYTQKSLSLSPGK light: not shown | 0.11 | 0.06 | 0.93
7 | Antibody 1.27.1-1 (antibody, human IgG1, kappa) heavy: QVQLLQSGAAVTKPGASVRVSCEASGYNIRDYFIHWWRQAPGQGLQWVGWINPKTGQPNNPRQFQGRVSLTRHASWDFDTFSFYMDLKALRSDDTAVYFCARQRTDYWDFDVWGSGTQVTVSSASTKGPSVFPLAPSSKSTSGGTAALGCLVKDYFPEPVTVSWNSGALTSGVHTFPAVLQSSGLYSLSSVVTVPSSSLGTQTYICNVNHKPSNTKVDKKVEPKSCDKTHTCPPCPAPELLAGPDVFLFPPKPKDTLMISRTPEVTCVVVDVSHEDPEVKFNWYVDGVEVHNAKTKPREEQYNSTYRVVSVLTVLHQDWLNGKEYKCKVSNKALPLPEEKTISKAKGQPREPQVYTLPPSREEMTKNQVSLTCLVKGFYPSDIAVEWESNGQPENNYKTTPPVLDSDGSFFLYSKLTVDKSRWQQGNVFSCSVLHEALHSHYTQKSLSLSPGK light: not shown | 0.13 | 0.54 | 0.56
8 | Antibody 1.28.1-1 (antibody, human IgG1, kappa) heavy: QVQLLQSGAAVTKPGASVRVSCEASGYNIRDYFIHWWRQAPGQGLQWVGWINPKTGQPNNPRQFQGRVSLTRHASWDFDTFSFYMDLKALRSDDTATYFCARQRTDYWDFDVWGSGTQVTVSSASTKGPSVFPLAPSSKSTSGGTAALGCLVKDYFPEPVTVSWNSGALTSGVHTFPAVLQSSGLYSLSSVVTVPSSSLGTQTYICNVNHKPSNTKVDKKVEPKSCDKTHTCPPCPAPELLAGPDVFLFPPKPKDTLMISRTPEVTCVVVDVSHEDPEVKFNWYVDGVEVHNAKTKPREEQYNSTYRVVSVLTVLHQDWLNGKEYKCKVSNKALPLPEEKTISKAKGQPREPQVYTLPPSREEMTKNQVSLTCLVKGFYPSDIAVEWESNGQPENNYKTTPPVLDSDGSFFLYSKLTVDKSRWQQGNVFSCSVLHEALHSHYTQKSLSLSPGK light: not shown | 0.1 | 0.11 | 1.63
9 | Antibody 1.29.1-1 (antibody, human IgG1, kappa) heavy: QVQLLQSGAAVTKPGASVRVSCEASGYNIRDYFIHWWRQAPGQGLQWVGWINPKTGQPNNPRQFQGRVSLTRHASWDFDTFSFYMDLKALRSDDTAVYFCARQRSDYWDFDVWGQGTQVTVSSASTKGPSVFPLAPSSKSTSGGTAALGCLVKDYFPEPVTVSWNSGALTSGVHTFPAVLQSSGLYSLSSVVTVPSSSLGTQTYICNVNHKPSNTKVDKKVEPKSCDKTHTCPPCPAPELLAGPDVFLFPPKPKDTLMISRTPEVTCVVVDVSHEDPEVKFNWYVDGVEVHNAKTKPREEQYNSTYRVVSVLTVLHQDWLNGKEYKCKVSNKALPLPEEKTISKAKGQPREPQVYTLPPSREEMTKNQVSLTCLVKGFYPSDIAVEWESNGQPENNYKTTPPVLDSDGSFFLYSKLTVDKSRWQQGNVFSCSVLHEALHSHYTQKSLSLSPGK light: not shown | 0.09 | 0.14 | 1.33
10 | Antibody 1.30.1-1 (antibody, human IgG1, kappa) heavy: QVQLLQSGAAVTKPGASVRVSCEASGYNIRDYFIHWWRQAPGQGLQWVGWINPKTGQPNNPRQFQGRVSLTRHASWDFDTFSFYMDLKALRSDDTAVYFCARQRSDYWDFDVWGSGTMVTVSSASTKGPSVFPLAPSSKSTSGGTAALGCLVKDYFPEPVTVSWNSGALTSGVHTFPAVLQSSGLYSLSSVVTVPSSSLGTQTYICNVNHKPSNTKVDKKVEPKSCDKTHTCPPCPAPELLAGPDVFLFPPKPKDTLMISRTPEVTCVVVDVSHEDPEVKFNWYVDGVEVHNAKTKPREEQYNSTYRVVSVLTVLHQDWLNGKEYKCKVSNKALPLPEEKTISKAKGQPREPQVYTLPPSREEMTKNQVSLTCLVKGFYPSDIAVEWESNGQPENNYKTTPPVLDSDGSFFLYSKLTVDKSRWQQGNVFSCSVLHEALHSHYTQKSLSLSPGK light: not shown | 0.06 | 0.15 | 0.93
11 | Antibody 1.1.2-1 (antibody, human IgG1) heavy: QVQLLQSGAAVTKPGASVRVSCEASGYNIRDYFIHWWRQAPGQGLQWVGWINPKTGQPNNPRQFQGRVSLTRHASWDFDTFSFYMDLKALRSDDTAVYFCARQRSDYWDFDVWGSGTQVTVSSASTKGPSVFPLAPSSKSTSGGTAALGCLVKDYFPEPVTVSWNSGALTSGVHTFPAVLQSSGLYSLSSVVTVPSSSLGTQTYICNVNHKPSNTKVDKKVEPKSCDKTHTCPPCPAPELLAGPDVFLFPPKPKDTLMISRTPEVTCVVVDVSHEDPEVKFNWYVDGVEVHNAKTKPREEQYNSTYRVVSVLTVLHQDWLNGKEYKCKVSNKALPLPEEKTISKAKGQPREPQVYTLPPSREEMTKNQVSLTCLVKGFYPSDIAVEWESNGQPENNYKTTPPVLDSDGSFFLYSKLTVDKSRWQQGNVFSCSVLHEALHSHYTQKSLSLSPGK VL: DIQMTQSPSSLSASVGDTVTITCQANGYLNWYQQKPGKAPKLLIYDGSKLERGVPSRFSGRRWGQEYNLTINNLQPEDIATYFCQVYEFVVPGTKVDIK | 0.14 | 0.2 | 0.62

Reference: patent publication US20220089698A1, “ANTIBODIES THAT TARGET HIV GP120 AND METHODS OF USE” (published 2022)
